Values from PubChem BioAssay AID504761 (Drosophila RNAi Screening Center, 2011).
Aim: 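Genome-wide fly cell screen for genes dengue virus requires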 (primary screen). Cells: D.Mel-2 cells from Drosophila. Reagents: long dsRNA against Drosophila genes. Conditions: infection with dengue virus type 2; dose and infection time not stated. Detection: 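Cells stained for dengue envelope protein and imaged; percent of infected cells per well on duplicate plates, ranked by infection, with stained nuclei counted for cell number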. Scale: infection score: higher = more virus-infected cells; cell count: higher = more cells in the well. Hit rule: 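Very low infection ranking in both replicate wells (chance probability at most 0.065), then a retest showing infection dropped 1.5-fold or more at p below 0.05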. Meaning of the calls: active = confirmed: knock-down lowers infection; inactive = not picked or not confirmed.
The deposit covers about 22,000 reagents; this is an unselected part of those that have a named target and a result. Over the whole deposit, 116 (0.52%) got an active call. 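Calls depend on retest data that are not deposited; infection was ranked per plate without normalising between plates; the unit of the infection score is not given.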 Raw values vary from plate to plate and are shown uncorrected. Not given: the amount of reagent, the time to read-out.

The first 7 records, to show the layout:
| Target gene | dsRNA | infection score, replicate 1 | infection score, replicate 2 | cell count, replicate 1 | cell count, replicate 2 | activity call |
| --- | --- | --- | --- | --- | --- | --- |
| l(3)L1231 | DRSC16323 | 8.64 | 12 | 5738 | 5585 | inactive |
| CG10562 | DRSC14257 | 2.9 | 3.28 | 6679 | 6545 | inactive |
| CG10562 | DRSC29099 | 0.69 | 10.5 | 581 | 6104 | inactive |
| CG31740 | DRSC01619 | 2.49 | 0.98 | 5709 | 5613 | inactive |
| CG15043 | DRSC19619 | 7.93 | 15.4 | 5357 | 4952 | inactive |
| CG15043 | DRSC29563 | 15.8 | 13.4 | 2907 | 4768 | inactive |
| CG6337 | DRSC06977 | 6.29 | 6.78 | 6643 | 6295 | inactive |

Main list, from the first entry:
| Target gene | dsRNA | infection score, replicate 1 | infection score, replicate 2 | cell count, replicate 1 | cell count, replicate 2 | activity call |
| --- | --- | --- | --- | --- | --- | --- |
| l(3)L1231 | DRSC16323 | 8.64 | 12 | 5738 | 5585 | inactive |
| CG10562 | DRSC14257 | 2.9 | 3.28 | 6679 | 6545 | inactive |
| CG10562 | DRSC29099 | 0.69 | 10.5 | 581 | 6104 | inactive |
| CG31740 | DRSC01619 | 2.49 | 0.98 | 5709 | 5613 | inactive |
| CG15043 | DRSC19619 | 7.93 | 15.4 | 5357 | 4952 | inactive |
| CG15043 | DRSC29563 | 15.8 | 13.4 | 2907 | 4768 | inactive |
| CG6337 | DRSC06977 | 6.29 | 6.78 | 6643 | 6295 | inactive |
| CG6337 | DRSC21870 | 10.9 | 12.6 | 6293 | 5870 | inactive |
| Zir | DRSC00307 | 22.6 | 34.9 | 4957 | 5232 | inactive |
| PolD3 | DRSC01961 | 9.05 | 28.5 | 6356 | 5174 | inactive |
| PolD3 | DRSC28401 | 0.59 | 8.89 | 512 | 1890 | inactive |
| CG3626 | DRSC18318 | 9.45 | 3.36 | 4687 | 2469 | inactive |
| CG3626 | DRSC26443 | 0.63 | 1.57 | 6831 | 6861 | inactive |
| Gr77a | DRSC11446 | 2.6 | 0.77 | 6189 | 6457 | inactive |
| Gr77a | DRSC26808 | 7.44 | 2.99 | 6668 | 3517 | inactive |
| beta4GalNAcTA | DRSC05944 | 1.29 | 1.04 | 6417 | 6653 | inactive |
| B4 | DRSC01868 | 26.8 | 16.6 | 4309 | 6155 | inactive |
| B4 | DRSC03175 | 3.49 | 4.6 | 6509 | 6627 | inactive |
| cpx | DRSC11999 | 3.59 | 1.38 | 6464 | 6144 | inactive |
| CG9386 | DRSC16485 | 10.8 | 5.44 | 7106 | 7273 | inactive |
| red | DRSC23177 | 0.68 | 12.3 | 5173 | 6019 | inactive |
| Ogg1 | DRSC17738 | 4.14 | 1.4 | 6736 | 6501 | inactive |
| Pepck1 | DRSC07505 | 0.6 | 1.06 | 6183 | 6414 | inactive |
| Pepck1 | DRSC26468 | 2.08 | 7.75 | 5875 | 5732 | inactive |
| Rab3GAP1 | DRSC00291 | 1.81 | 20.3 | 6737 | 6380 | inactive |
| Rab3GAP1 | DRSC00703 | 1.81 | 4.01 | 6502 | 6456 | inactive |
| Rab3GAP1 | DRSC28988 | 0.24 | 16.1 | 422 | 6156 | inactive |
| Men-b | DRSC16736 | 1.63 | 1.21 | 6554 | 6138 | inactive |
| CG10591 | DRSC09748 | 7.1 | 2.55 | 6494 | 6779 | inactive |
| CG10591 | DRSC27468 | 17.5 | 12.4 | 4696 | 6125 | inactive |
| Gr47b | DRSC05275 | 1.33 | 0.48 | 5871 | 5883 | inactive |
| Kap-alpha1 | DRSC11356 | 6.28 | 10.1 | 6494 | 6281 | inactive |
| scpr-B | DRSC15200 | 8.15 | 7.09 | 6932 | 6816 | inactive |
| Unc50 | DRSC16561 | 8.95 | 13.7 | 6011 | 5426 | inactive |
| Unc50 | DRSC28560 | 5.44 | 19.8 | 1397 | 5200 | inactive |
| Lsm10 | DRSC06250 | 2.95 | 5.34 | 7231 | 6549 | inactive |
| mIF3 | DRSC06290 | 17 | 9.54 | 5445 | 5212 | inactive |
| Obp58d | DRSC04162 | 8.66 | 7.94 | 6607 | 6599 | inactive |
| Optix | DRSC05078 | 6.25 | 4.97 | 6588 | 6678 | inactive |
| Optix | DRSC07484 | 6.77 | 16.9 | 5731 | 6224 | inactive |
| Optix | DRSC21963 | 1.45 | 2.98 | 6607 | 6435 | inactive |
| Optix | DRSC29089 | 13.2 | 14.4 | 3433 | 6501 | inactive |
| CG10516 | DRSC09738 | 0.7 | 3.23 | 6300 | 6341 | inactive |
| CG32773 (retired record) | DRSC17330 | 3.42 | 2.18 | 6412 | 6205 | inactive |
| Oga | DRSC15901 | 2.15 | 1.29 | 6661 | 6642 | inactive |
| CG10000 | DRSC14170 | 2.21 | 10.4 | 6297 | 6179 | inactive |
| CG10000 | DRSC29791 | 5.55 | 4.3 | 6381 | 5675 | inactive |
| Tsp86D | DRSC15607 | 2.1 | 8.67 | 6462 | 6676 | inactive |
| CG4198 | DRSC18354 | 5.11 | 2.93 | 6050 | 6316 | inactive |
| CG4198 | DRSC26635 | 1.27 | 2.47 | 6222 | 6385 | inactive |
| Saf-B | DRSC16167 | 5.23 | 16.1 | 4842 | 4543 | inactive |
| Saf-B | DRSC28393 | 0.22 | 13.4 | 462 | 2019 | inactive |
| CG7912 | DRSC16343 | 8.21 | 1.47 | 6166 | 6390 | inactive |
| Atg4b | DRSC15988 | 18.2 | 9.22 | 4879 | 6031 | inactive |
| Atg4b | DRSC25480 | 2.68 | 10.4 | 7065 | 6766 | inactive |
| Syx6 | DRSC07032 | 21.8 | 7.52 | 3852 | 6358 | inactive |
| Syx6 | DRSC25244 | 1.58 | 0.81 | 6726 | 6694 | inactive |
| msps | DRSC17004 | 2.4 | 7.59 | 5420 | 5468 | inactive |
| CG42633 | DRSC16061 | 4.22 | 9.77 | 6369 | 6272 | inactive |
| O-fut2 | DRSC18608 | 1.23 | 0.89 | 5953 | 6150 | inactive |
| whd | DRSC07351 | 4.83 | 7.96 | 6019 | 6423 | inactive |
| CG32708 | DRSC18411 | 15.3 | 33.4 | 6143 | 5241 | inactive |
| CG32708 | DRSC28419 | 30.7 | 4.42 | 3327 | 906 | inactive |
| Dyrk3 | DRSC21055 | 9.08 | 7.07 | 6188 | 6717 | inactive |
| Pgant4 | DRSC00717 | 7.44 | 2.93 | 6825 | 6714 | inactive |
| Pgant4 | DRSC29585 | – | – | 447 | 360 | inactive |
| her | DRSC03543 | 12.7 | 8.69 | 6294 | 5710 | inactive |
| CG30283 | DRSC04071 | 6.48 | 4.22 | 6497 | 6991 | inactive |
| CG30283 | DRSC24411 | 3.07 | 4.13 | 6686 | 6446 | inactive |
| Mlh1 | DRSC07473 | 3.36 | 11.4 | 6102 | 6417 | inactive |
| Dhc64C | DRSC08656 | 3.4 | 5.63 | 6058 | 6218 | inactive |
| Dhc64C | DRSC25497 | 3.96 | 5.07 | 4244 | 4892 | inactive |
| CG33771 | DRSC11718 | 1.15 | 2.49 | 7045 | 6263 | inactive |
| CG8910 | DRSC07414 | 5.21 | 13.4 | 7159 | 3713 | inactive |
| CG8910 | DRSC28591 | 16.6 | 7.26 | 3955 | 2783 | inactive |
